Tested on: N. gonorrhoeae topoisomerase IV carrying ParC^S87N, ParC^E91G, or ParC^S87N/E91G
Settings: 100 μM SPT, vs wild-type

C[C@@H]1CN2c3c(cc4c(N5C(=O)OC[C@@H]5C)noc4c3F)CC3(C(=O)NC(=O)NC3=O)[C@H]2[C@H](C)O1 [zoliflodacin, Zoliflodacin]
fold reduction of double-stranded DNA scission by fluoroquinolone resistance mutations in topoisomerase IV: 1.6- to 3 fold
